Compound potency records, mixed from different reports. Data source: NIAID ChemDB in PubChem.

Shared fields: whole-cell or culture tests; agent: Aspergillus fumigatus

Blank or dashed fields: not listed here.

| structure | setting | read by | strain | measure | value |
|---|---|---|---|---|---|
| O=C(/C=C/c1cc2ccccc2nc1Cl)c1ccccc1 |  |  | ATCC 26934 | MIC | >50 µg/mL |
| O=C(O)c1cccc(-n2nnnc2SCc2cc([N+](=O)[O-])cc([N+](=O)[O-])c2)c1 | 48 h | broth dilution | 231 | EC50 | >500 µM |
| CCc1ccccc1O |  | agar |  | MIC100 | 361 µg/mL |
| COc1ccc2nc(Sc3ccc(C)cc3)c(C3C(C#N)=C(N)Oc4c3c(=O)oc3ccc(C)cc43)cc2c1 |  | broth dilution | MTCC 3008 | MIC | 1000 µg/mL |
| COc1cc(C(=O)O)cc(OC)c1O |  | agar |  | MIC50 | >1000 µg/mL |
| N#CC(C#N)C(CC(=O)c1ccccc1)c1ccc2ccccc2c1 |  |  | ATCC 26934 | MIC | >50 µg/mL |
| CC(C)=CCC/C(C)=C/CO |  | broth dilution | MTCC 2550 | MIC | 144 µg/mL |
| COc1cc(C(=O)O)ccc1O |  | agar |  | MIC100 | >1000 µg/mL |
| COc1ccc(C(=O)/C=C/c2ccc3ccccc3c2)c(OC)c1 |  |  | ATCC 26934 | MIC | >50 µg/mL |
| CCc1ccc(O)c(OC)c1 |  | agar |  | MIC50 | 74 µg/mL |
| COc1cc2cc(/C=C/C(=O)c3ccc(Cl)cc3)c(Cl)nc2cc1OC |  |  | ATCC 26934 | MIC | >50 µg/mL |
| COc1ccc2nc(Sc3ccc(C)cc3)c(C3C(C#N)=C(N)Oc4cc(C)oc(=O)c43)cc2c1 |  | broth dilution | MTCC 3008 | MIC | 1000 µg/mL |
| OC(Cn1cncn1)(Cn1cncn1)c1ccc(F)cc1F |  |  | NFI 4001 | MIC | >128 µg/mL |
| COc1ccc2nc(Sc3ccccc3)c(C3C(C#N)=C(N)Oc4cc(C)oc(=O)c43)cc2c1 |  | broth dilution | MTCC 3008 | MIC | 200 µg/mL |
| CN(C/C=C/C#CC(C)(C)C)Cc1cccc2ccccc12 |  |  | NFI 4001 | MFC | 4 µg/mL |
| N#CC1=C(N)Oc2c(c(=O)oc3ccccc23)C1c1cc2ccccc2nc1Sc1ccccc1 |  | broth dilution | MTCC 3008 | MIC | 1000 µg/mL |
| COc1cc(/C=C/C(=O)c2cc(OC)c(OC)c(OC)c2)cc(OC)c1OC |  |  | ATCC 26934 | MIC | >50 µg/mL |
| O=[N+]([O-])c1cc(CSc2nnnn2C2CCCCC2)cc([N+](=O)[O-])c1 | 24 h | broth dilution | 231 | EC50 | >500 µM |
| COc1ccc(C(=O)CC(c2ccc3ccccc3c2)C(C#N)C#N)cc1OC |  |  | ATCC 26934 | MIC | >50 µg/mL |
| O=[N+]([O-])c1ccc(C[Se]c2nnnn2C2CCCCC2)c([N+](=O)[O-])c1 | 48 h | broth dilution | 231 | EC50 | >500 µM |
| COc1ccc(/C=C/C(=O)c2ccc(OC)c(OC)c2)cc1OC |  |  | ATCC 26934 | MIC | >50 µg/mL |
| CN(C/C=C/C#CC(C)(C)C)Cc1cccc2ccccc12 |  |  | 60 isolates | Geometric mean MIC | 19.03 µg/mL |
| O=[N+]([O-])c1cc(C[Se]c2nnnn2Cc2ccccc2)cc([N+](=O)[O-])c1 | 24 h | broth dilution | 231 | EC50 | >500 µM |

For reference, 2 entries again:

N#CC1=C(N)Oc2c(c(=O)oc3ccccc23)C1c1cc2ccccc2nc1Sc1ccccc1 ; read by: broth dilution ; strain: MTCC 3008 ; measure: MIC ; value: 1000 µg/mL
COc1cc(C(=O)O)ccc1O ; read by: agar ; measure: MIC100 ; value: >1000 µg/mL

ECn is the concentration giving n% inhibition of infection, replication or growth. Neighbouring rows are from separate reports. MIC50, MIC90 and the like: level of inhibition, or share of isolates inhibited.